A mixed list of measured activities; the numbers were collected in NIAID ChemDB.

All rows: host cell toxicity; cells: VERO; read-out: CC50

Blank or dashed fields: not listed here. CCn: concentration that lowers growth or viability of the cells by n%. Conditions beyond the fields shown may differ between rows.

| structure | read by | value |
|---|---|---|
| Clc1ncnc2c1ncn2C1C[C@H]2[NH2+][C@@H]1c1ccccc12.O=C([O-])C(F)(F)F | MTS | >64 µM |
| C=CCN(CC=C)CCN1CCN(CCCN2c3ccccc3Sc3ccc(C(F)(F)F)cc32)CC1.Cl.Cl.Cl |  | 4.5 µg/mL |
| Nc1c(Cl)ncnc1NC1C[C@@H]2CC[C@H]1[NH2+]2.O=C([O-])C(F)(F)F | MTS | >141 µM |
| NC(=Nc1ccc(S(=O)(=O)Nc2cnc3ccccc3n2)cc1)/N=C(\N)Nc1ccc(Br)cc1 |  | >62.5 µg/mL |
| Cc1cccc(C)c1Nc1nc(-c2ccn[nH]2)cs1 | luminescence | 44 µM |
| O=C([O-])C(F)(F)F.O=C([O-])C(F)(F)F.c1nc([NH2+]C2CC2)c2ncn(C3C[C@H]4C[C@@H]3C[NH2+]4)c2n1 | MTS | >303 µM |
| Cc1[nH]nc(-c2cccnc2)c1N=NN(C)C |  | 0.44 µg/mL |
| c1ccc(Nc2nc(-c3ccccn3)cs2)nc1 | luminescence | 0.2 µM |
| CO[C@H]1/C=C/O[C@@]2(C)Oc3c(C)c(O)c4c(O)c(c(/C=N/N5CCN(C)CC5)c(O)c4c3C2=O)NC(=O)/C(C)=C\C=C\[C@H](C)[C@H](O)[C@@H](C)[C@@H](O)[C@@H](C)[C@H](OC(C)=O)[C@@H]1C | MTS / absorbance | >128 µM |
| FC(F)(F)c1ccccc1Nc1nc(-c2ccccc2)cs1 | luminescence | 14 µM |
| ClCc1c(-c2ccccc2)oc(-c2ccccc2)c1CCl |  | >50 µg/mL |
| NC(=O)c1csc([C@@H]2O[C@H](COP(=O)(O)CP(=O)(O)OC[C@H]3O[C@@H](n4cnc5c(N)ncnc54)[C@H](O)[C@@H]3O)[C@@H](O)[C@H]2O)n1 | neutral red | >1000 µg/mL |
| CC(C)(C)OC(=O)N1C[C@H]2C[C@@H]1CC2n1cnc2c(NC3CC3)ncnc21 | MTS | >135 µM |
| CC(N=c1cc2n(-c3ccc(Cl)cc3)c3ccccc3nc-2cc1Nc1ccc(Cl)cc1)c1ccccc1 |  | 11.2 µg/mL |
| Nc1ncnc2c1[nH]c[n+]2C1C[C@H]2[NH2+][C@@H]1c1ccccc12.O=C([O-])C(F)(F)F.O=C([O-])C(F)(F)F | MTS | >99 µM |
| O=c1[nH]c(=O)n([C@@H]2O[C@H](CO)[C@@H](O)[C@H]2O)[nH]c1=S | neutral red | 761 µg/mL |
| COc1ccc(C2N(NC(=O)c3ccncc3)C(=O)CS2(=O)=O)cc1F |  | >10 µg/mL |
| Nc1ncn([C@@H]2O[C@H](CO)[C@@H](O)[C@H]2O)c(=O)n1 | neutral red | 565 µg/mL |
| CCN(CC)CCNc1ccc(CO)c2oc3ccc(OS(=O)(=O)c4ccc(C)cc4)cc3c(=O)c12 |  | 0.79 µg/mL |
| Cc1cccc(C)c1Nc1nnc(-c2ccccn2)o1 | luminescence | >100 µM |
| CC(=O)OC[C@H]1O[C@@H](n2ncc(=O)[nH]c2=O)[C@H](OC(C)=O)[C@@H]1OC(C)=O | neutral red | 80 µg/mL |
| CCN(CC)C(=S)S |  | 6.5 µg/mL |
| CC(C)(C)OC(=O)N1C[C@H]2CC(n3cnc4c(NC5CC5)ncnc43)[C@@H]1C2 | MTS | >135 µM |
| C[N+](C)(C)C(=O)Nc1nc(-c2ccccn2)cs1 | luminescence | 54 µM |

A second listing of 3 rows from above:

CC(=O)OC[C@H]1O[C@@H](n2ncc(=O)[nH]c2=O)[C@H](OC(C)=O)[C@@H]1OC(C)=O ; read by: neutral red ; value: 80 µg/mL
CO[C@H]1/C=C/O[C@@]2(C)Oc3c(C)c(O)c4c(O)c(c(/C=N/N5CCN(C)CC5)c(O)c4c3C2=O)NC(=O)/C(C)=C\C=C\[C@H](C)[C@H](O)[C@@H](C)[C@@H](O)[C@@H](C)[C@H](OC(C)=O)[C@@H]1C ; read by: MTS / absorbance ; value: >128 µM
NC(=O)c1csc([C@@H]2O[C@H](COP(=O)(O)CP(=O)(O)OC[C@H]3O[C@@H](n4cnc5c(N)ncnc54)[C@H](O)[C@@H]3O)[C@@H](O)[C@H]2O)n1 ; read by: neutral red ; value: >1000 µg/mL